Experimental data taken from patent publication US8354498B2, “CD4 mimic peptides and their uses” (Commissariat a l'Energie Atomique, priority 2006, dated 2013).

Experiments:
gp120 Bal = test: Direct binding by fluorescence anisotropy of Alexa-labeled mini-proteins; parameters: species or system HIV-1; conditions: Alexa labeled mini-protein 0.5 nM; gp120 Bal (R5-tropic); read-out: Dissociation constant (Kd)
Experimental: Binding assays by fluorescence anisotropy were made in a LJL Analyst (LJL BIOSYSTEMS) microplate reader using 384-wells plates. All peptides were diluted in 10 mM sodium phosphate buffer, pH 7.0, with 135 mM NaCl and 0.05% Tween 20.
Direct binding assays of fluorescent peptides were performed in triplicates by adding 10 μL of 0.5 nM Alexa-labeled mini-proteins and 10 μL of serial dilutions (two-thirds dilutions in 16 wells, starting at 200 nM) of gp120 SF2, SF162, BaL, IIIB and YU2. Collected data were fitted to the following equation using a non-linear regression program (Prism, GraphPad software Inc.):
[formula] where A, Af and Ab are respectively the measured, free and fully bounded anisotropy, Lt is the total labeled mini-protein concentration, Rt is the total gp120 concentration and Kd the thermodynamic dissociation constant. d) FACS Analysis of CD4M48-Induced Envelope Conformational Change

HIV-1 77(X4) = test: Acute infection assay in PM1 cells; type: cell-based; conditions: day 5, read-out: Antiviral activity IC50
Experimental: For the acute infection assay in PM1 cell line (Lusso et al., J. virol., 1995, 69, 3712-3720), an immortalized CD4^+CCR5^+CXCR4^+ T-cell clone susceptible of a wide variety of HIV-1 strains, the cells were seeded at 2.5×10^4 cells/well into flat-bottom 96-well plates in 200 μL of complete RPMI medium. Cells were then exposed to the viral stocks (˜50 TCID50/well) pre-treated or not with serial dilutions of inhibitors for 30 min. After overnight incubation at 37° C., the cells were washed twice and recultured in complete RPMI medium supplemented with the appropriate inhibitors. After 3, 5 or 7 days, the culture supernatant was removed […] p24 antigen testing and replaced with fresh medium containing the appropriate inhibitors. The extracellular p24 concentrations were measured by capture ELISA, using a sandwich of specific antibodies (AALTO BIO REAGENTS).
The experimental procedures are as described in example 1.

[1] = target: T1, gp120SF162 binding to CCR5+-CHO cells (Human immunodeficiency virus type 1 group M subtype B, UniProt P19550); test: FACS analysis of gp120 binding to CCR5+-CHO cells in presence of CD4 mimics; type: cell-based, HIV-1; conditions: gp120SF162 pre-incubated with mini-protein
T1 construct: R5-tropic SF162 and Dual-tropic SF2 recombinant gp120s were produced in mammalian cells (CHO); made in house; host or cells: gp120: CHO; CCR5: transfected CHO-K1 cells
Description: FIG. 7 illustrates the FACS analysis of the binding of recombinant envelope gp120 to CCR5^+-CHO cells in absence or in presence of various CD4-mimics, in comparison with soluble CD4.
FIG. 13 illustrates the FACS analysis of the binding of recombinant envelope gp120 to CCR5^+-CHO cells in absence or in presence of various CD4-mimics in comparison with soluble CD4.
FIG. 19 illustrates the FACS analysis of the binding of gp120SF162 to CCR5^+ CHO cells in absence or in presence of CD4M48 monomer or hetero-bivalent CD4M48−heparin. The ability of gp120 in complex with CD4M48 alone, CD4M48 covalently bound to heparin (noted M48−heparin), CD4M48 in presence of free LMW heparin (1:1) (noted M48+heparin) to bind to cellular co-receptor CCR5 was investigated.
Adherent CHO-K1 cells expressing CCR5 (Samson et al., Biochemistry, 1996, 35, 3362-3367; Blanpain et al., Blood, 2000, 96, 1638-1645) were used to analyze gp120SF162 conformational change in complex with different mini-proteins, by FACS (BECKTON DICKINSON). Briefly, 0.03 μg of gp120SF162 were pre-incubated overnight at 4° C. in absence or in presence of 10 nM CD4 or 10 nM mini-proteins and further added to 2×10^5 cells in HAM F12 supplemented with 10% SVF, 1% penicillin/streptomycin. After 1 h incubation at room temperature, cells were washed 3 times with phosphate buffer saline (PBS) containing 5% BSA. Bound gp120 was subsequently stained with D7324 antibody (AALTO BIO REAGENTS) washed and labeled with goat anti-sheep secondary antibody conjugated to phycoerythrin (PE) (R&D SYSTEMS). After final wash, cells were analyzed for envelope binding by FACS.

HIV strains = test: Neutralization assays, comparison over HIV strains; type: cell-based; conditions: depending on HIV strains
Experimental: To analyze the inhibitory activity of the new compounds, both CD4M47 and CD4M48 were compared to their parent molecules (respectively CD4M33 and [Phe^23]M33) and sCD4 in neutralization cell line assay. The susceptibility of various envelope clones to be inhibited by CD4-mimic peptides was analyzed using a broadly sensitive HIV-entry assay able to give quantified infection within a single cycle of replication (Salzwedel et al., J. Virol., 2000, 74, 326-333). Using JC53BL-13 indicator cell line, HIV neutralization escapes were evaluated with various isolate envelopes, not only of HIV-1 type but also of HIV-2 and SIV types (Wei et al., Nature, 2003, 422, 307-312).
Sensitivity to neutralization by mini-proteins varied substantially depending on HIV strains, but remained lower than for CD4. Stabilizing of the type II′ β-turn in CD4M48 leads to a significant increase (up to 10 fold) of its neutralization potency of HIV infection, compared to its parent molecule [Phe^23]M33. The addition of a biphenyl moiety at position 23 in CD4M47 peptide led to more subtle differences, depending mainly on the isolates. For highly sensitive isolates from group M such as NL4.3, YU2, MN-8, MN-25, the biphenyl moiety always provided an improvement in efficiency compared to phenyl group. […]

CC(C)C[C@@H]1NC(=O)CNC(=O)[C@H](CC(C)C)NC(=O)[C@H](CO)NC(=O)[C@H](CCCCN)NC(=O)[C@@H]2CSSC[C@@H](C(=O)N[C@H](C(N)=O)C(C)C)NC(=O)[C@H](C)NC(=O)[C@@H]3CSSC[C@H](NC(=O)[C@H](Cc4ccccc4)NC(=O)[C@H](Cc4c[nH]cn4)NC(=O)[C@H](CC(C)C)NC(=O)[C@H](CC(N)=O)NC(=O)CCSSC[C@H](NC(=O)[C@H](CCCNC(=N)N)NC(=O)CNC(=O)[C@H](CC(C)C)NC1=O)C(=O)N[C@@H](C)C(=O)N1CCC[C@@H]1C(=O)N[C@@H]([C@@H](C)O)C(=O)N[C@@H](Cc1ccccc1)C(=O)N3)C(=O)N[C@@H](CCC(N)=O)C(=O)N[C@@H](CC(C)C)C(=O)N[C@@H](CCCNC(=N)N)C(=O)N2 [CD4M48]
Kd (gp120 Bal): 5.46 ± 0.23 nM
IC50 (HIV-1 77(X4)): 250 nM
Binding of gp120 to CCR5+-CHO cells induced by the mimic (conformational change of gp120) [1]: same recognizing of CCR5^+-CHO cells as CD4
Increase of neutralization potency of HIV infection compared to parent molecule [Phe^23]M33 (HIV strains): up to 10 fold
